{"source": "PubChem BioAssay AID1224833 (University of Georgia, 2016)", "test": "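Host factors restraining rotavirus as candidate antiviral genes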 (primary screen)", "system": "monkey MA104 kidney cells", "reagent": "siRNA pool against human genes, 50 nM", "duration": "48 h knock-down before infection; read 24 h after infection", "treatment": "infection with rotavirus strain RV3 two days after transfection; infectious dose for this stage not given", "measured": "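z-score of rotavirus antigen signal per well, from a fluorescent immunoassay, relative to non-targeting control wells on the same plate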", "scale": "z-score vs non-targeting control: higher = more rotavirus replication than with non-targeting control", "active means": "In these data the active calls have z-score vs non-targeting control at about -1 or lower, or at about 1 or higher", "meaning of the calls": "active = z-score beyond 1 either way; inactive = z-score within 1 of zero", "note": "The deposit covers about 12,000 reagents; below is a random part of them. About 5,600 of them (46%) count as active. 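Active calls cover z-scores past 1 in both directions, so they include lowered as well as raised rotavirus replication.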 A number with no mark means an inactive call."}
{"target gene": "SS18 (SS18 subunit of BAF chromatin remodeling complex)", "z-score vs non-targeting control": "-1.31 (active)"}
{"target gene": "B3GALT6 (beta-1,3-galactosyltransferase 6)", "z-score vs non-targeting control": "-2.14 (active)"}
{"target gene": "EPHX1 (epoxide hydrolase 1)", "z-score vs non-targeting control": 0.878}
{"target gene": "FAF1 (Fas associated factor 1)", "z-score vs non-targeting control": 0.749}
{"target gene": "MRPS9 (mitochondrial ribosomal protein S9)", "z-score vs non-targeting control": -0.997}
{"target gene": "KPNA5 (karyopherin subunit alpha 5)", "z-score vs non-targeting control": "-1.26 (active)"}
{"target gene": "CHCT1 (CHD1 helical C-terminal domain containing 1)", "z-score vs non-targeting control": "1.61 (active)"}
{"target gene": "TMPRSS11B (transmembrane serine protease 11B)", "z-score vs non-targeting control": -0.8}
{"target gene": "MAK16 (MAK16 homolog)", "z-score vs non-targeting control": "1.6 (active)"}
{"target gene": "ATP6V1G2 (ATPase H+ transporting V1 subunit G2)", "z-score vs non-targeting control": "1.47 (active)"}
{"target gene": "ZCWPW1 (zinc finger CW-type and PWWP domain containing 1)", "z-score vs non-targeting control": -0.184}
{"target gene": "ELP4 (elongator acetyltransferase complex subunit 4)", "z-score vs non-targeting control": 0.299}
{"target gene": "CRB3 (crumbs cell polarity complex component 3)", "z-score vs non-targeting control": "-3.02 (active)"}
{"target gene": "VN1R2 (vomeronasal 1 receptor 2)", "z-score vs non-targeting control": "1.54 (active)"}
{"target gene": "CHST4 (carbohydrate sulfotransferase 4)", "z-score vs non-targeting control": "-2.43 (active)"}
{"target gene": "RBP4 (retinol binding protein 4)", "z-score vs non-targeting control": -0.942}
{"target gene": "CABP5 (calcium binding protein 5)", "z-score vs non-targeting control": "-1.89 (active)"}
{"target gene": "DAAM2 (dishevelled associated activator of morphogenesis 2)", "z-score vs non-targeting control": 0.442}
{"target gene": "ATOH1 (atonal bHLH transcription factor 1)", "z-score vs non-targeting control": "-1.06 (active)"}
{"target gene": "CLN3 (CLN3 lysosomal/endosomal transmembrane protein, battenin)", "z-score vs non-targeting control": 0.392}
{"target gene": "ABCC1", "z-score vs non-targeting control": "-1.68 (active)"}
{"target gene": "GCG (glucagon)", "z-score vs non-targeting control": 0.751}
{"target gene": "PILRB (paired immunoglobin like type 2 receptor beta)", "z-score vs non-targeting control": -0.196}
{"target gene": "SLC6A17", "z-score vs non-targeting control": 0.146}
{"target gene": "DYNLRB2 (dynein light chain roadblock-type 2)", "z-score vs non-targeting control": "-1.34 (active)"}
{"target gene": "KLHL9 (kelch like family member 9)", "z-score vs non-targeting control": "1 (active)"}
{"target gene": "COL5A3 (collagen type V alpha 3 chain)", "z-score vs non-targeting control": -0.131}
{"target gene": "TFIP11 (tuftelin interacting protein 11)", "z-score vs non-targeting control": 0.185}
{"target gene": "TCP11L1 (t-complex 11 like 1)", "z-score vs non-targeting control": -0.926}
{"target gene": "ABHD16B (abhydrolase domain containing 16B)", "z-score vs non-targeting control": "-2 (active)"}
{"target gene": "ERAP2 (endoplasmic reticulum aminopeptidase 2)", "z-score vs non-targeting control": "1.42 (active)"}
{"target gene": "SPANXA2 (SPANX family member A2)", "z-score vs non-targeting control": "-1.02 (active)"}

A portion taken from the entries so far:
{"target gene": "TCP11L1 (t-complex 11 like 1)", "z-score vs non-targeting control": -0.926}
{"target gene": "ABHD16B (abhydrolase domain containing 16B)", "z-score vs non-targeting control": "-2 (active)"}
{"target gene": "ERAP2 (endoplasmic reticulum aminopeptidase 2)", "z-score vs non-targeting control": "1.42 (active)"}
{"target gene": "SPANXA2 (SPANX family member A2)", "z-score vs non-targeting control": "-1.02 (active)"}
